Results reported in PubChem BioAssay AID449728 (The Scripps Research Institute Molecular Screening Center, 2010).
The entries are a selection whose mix differs from that of the whole data set. Active and inactive are the calls of the source.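 Rule for the calls: active = inhibition above the campaign's mean inhibition across all tested compounds plus 3 SD (cut at about 9.9% in these data); inactive = the rest.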

Experiment: E. coli V3065 growth inhibition, primary screen, counter-screen for AddAB inhibitor project, absorbance, OD600 (AID 449728);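 note: uninfected addAB+ strain grown without phage in ampicillin broth; 0% = DMSO wells and 100% = ciprofloxacin 0.95 µg/ml wells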
Conditions: 18 h, at 11.9 µM, stronger effect = higher value

Row | SMILES | inhibition
1 | COc1ccc(N/C(=N/P(=O)(N2CCOCC2)N2CCOCC2)N2CCOCC2)cc1 | inactive: 1.34%
2 | COc1cc(I)ccc1[As](=O)(O)O | inactive: -1.97%
3 | COc1ccc2nc(NP(=O)(c3ccccc3)c3ccccc3)sc2c1 | inactive: -2.39%
4 | Cc1c2c(nc3ccccc13)SC(C(Cl)Cl)C2 (configuration not stated) | inactive: -0.95%
5 | Cc1cc(=O)[nH]c(N[N+](=O)[O-])n1 | inactive: 0.95%
6 | O=C(OC1CN2CCC1CC2)C12CC3CC(CC(C3)C1)C2 (configuration not stated) | inactive: 0.27%
7 | O=[N+]([O-])c1cc([N+](=O)[O-])c(-c2ccn[nH]2)s1 | active: 25.8%
8 | CC(C)NC(=O)NP(=O)(Oc1ccccc1)Oc1ccccc1 | inactive: -0.27%
9 | CCN(CC)C(=S)SC(NC=O)C(Cl)(Cl)Cl (configuration not stated) | inactive: 1.1%
10 | ClCCSc1nnc(-c2cccnc2)o1 | inactive: 0.63%
11 | CC(C)c1ccc(OP(=O)(Nc2ccccn2)Oc2ccccc2F)cc1 (configuration not stated) | inactive: 2.04%
12 | Cc1ccc(OP(=O)(Nc2ccc([N+](=O)[O-])cn2)Oc2ccc(C)cc2)cc1 | inactive: 0%
13 | Cc1ccc2nc3c(c(C)c2c1)CC(C(Cl)Cl)S3 (configuration not stated) | inactive: 0.09%
14 | COc1cc(C(=O)NCC2(N3CCOCC3)CCCCC2)ccc1OCC(C)C | inactive: -1.59%
15 | C[As](=O)(O)c1cccc(C(=O)O)c1 | inactive: -0.63%
16 | O=[As](O)(c1ccc(O)cc1)c1ccccc1O | inactive: -1.8%
17 | Cc1cc(SC(NC=O)C(Cl)(Cl)Cl)ncn1 (configuration not stated) | inactive: -0.77%
18 | O=P(Nc1ccccn1)(c1cccc2ccccc12)c1cccc2ccccc12 | inactive: -0.09%
19 | CCOC(=O)Nc1cccc([As](=O)(O)O)c1 | inactive: 2.57%
20 | Cc1cc(SC(NC(=O)c2ccccc2)C(Cl)(Cl)Cl)nc(C(C)C)n1 (configuration not stated) | inactive: -1.72%
21 | CCOC(=O)Nc1ccc([As](=O)(O)O)c(O)c1 | inactive: 2.49%
22 | CCC(C)N(CC(C)C)C(=S)SC(NC(C)=O)C(Cl)(Cl)Cl (configuration not stated) | active: 13.5%
23 | O=C(OC1CN2CCC1CC2)c1cccc([N+](=O)[O-])c1 (configuration not stated) | inactive: 1%
24 | CCOC(=O)c1ccc(NC(=O)C(C)(CCl)SC)cc1 (configuration not stated) | inactive: -1.37%
25 | O=C(Nc1ccncc1[N+](=O)[O-])c1ccc([N+](=O)[O-])cc1[N+](=O)[O-] | inactive: -1.36%
26 | O=C(COc1ccccc1)OC1CN2CCC1CC2 (configuration not stated) | inactive: 3.64%

Row | SMILES | inhibition
27 | COP1(=S)c2c(C)nn(CCC#N)c2N=C(c2ccc(F)cc2)N1C (configuration not stated) | inactive: -0.74%
28 | CN(C(=O)Cc1ccc(Cl)c(Cl)c1)[C@@H]1CCCC[C@H]1N1CCCC1 | inactive: 0.17%
29 | CC(C)/C=N\N=C(\N)N[N+](=O)[O-] | inactive: -5.45%
30 | CC1(CBr)Cn2c(nc3ccccc3c2=O)S1 (configuration not stated) | inactive: -1.1%
31 | O=[As](O)(c1ccccc1Br)c1ccccc1Br | inactive: 0.55%
32 | COc1ccccc1CNC(=O)COC(=O)C(O)(c1ccccc1)c1ccccc1 | inactive: -0.08%
33 | CC(C)(C)C(=O)NC(Sc1ncccn1)C(Cl)(Cl)Cl (configuration not stated) | inactive: -1.36%
34 | Clc1n[nH]nc1-c1nn[nH][15n]1 | inactive: -1.68%
35 | CCOP(=O)(NC(=NC(C)c1ccccc1)NC(C)c1ccccc1)OCC (configuration not stated) | inactive: -1.27%
36 | CCC1=CC2Cc3nc4ccc(Cl)cc4c(N)c3C(C1)C2 (configuration not stated) | inactive: 3.1%
37 | O=P1(Nc2ccccn2)COc2ccccc2OC1 | inactive: -1.46%
38 | CCOP(=O)(Nc1ccc(C)cn1)OCC | inactive: 0.27%
39 | CN(CCCl)Cc1cc(Cl)c(NC2=NCCN2)c(Cl)c1 | inactive: -0.61%
40 | Nc1cccc([As](=O)(O)c2ccccc2)c1 | inactive: -0.26%
41 | Cc1ccc(OCC(=O)OC2CN3CCC2CC3)cc1 (configuration not stated) | inactive: -0.09%
42 | O=[As](O)(c1cccs1)c1cccs1 | inactive: 2.36%
43 | NS(=O)(=O)c1cccc(NC(=O)COC(=O)C(O)(c2ccccc2)c2ccccc2)c1 | inactive: -1.51%
44 | O=P1(Nc2ccc(Br)cn2)COc2ccccc2OC1 | inactive: -2.25%
45 | O=P1(Nc2ncccn2)COc2ccccc2OC1 | inactive: 1.92%
46 | CN(C)C1(CNC(=O)c2ccc(S(C)(=O)=O)cc2)CCCCC1 | inactive: 1.09%
47 | O=C(/C=C/c1ccccc1)OC1CN2CCC1CC2 (configuration not stated) | inactive: 0.65%
48 | Cc1ccc(C(=O)OC2CN3CCC2CC3)cc1 (configuration not stated) | inactive: -2.32%
49 | CC1CCC(C(C)C)C(OP(=O)(Nc2ccccn2)c2ccccc2)C1 (configuration not stated) | inactive: 1.95%
50 | Cc1nn(-c2ccccc2)c2c1P(=O)(N1CCOCC1)N(C)C(c1ccccc1)=N2 (configuration not stated) | inactive: 3.19%
51 | CN(C(=O)Cc1ccccc1)[C@@H]1CC[C@]2(CCCO2)C[C@H]1N1CCCC1 | inactive: 0.17%
52 | CCOP1(=S)c2c(C)nn(CCC#N)c2N=C(c2ccc(F)cc2)N1C (configuration not stated) | inactive: 0%

Row | SMILES | inhibition
53 | N#CCCN(C(=O)COC(=O)C(O)(c1ccccc1)c1ccccc1)c1ccc(F)cc1 | inactive: -3.04%
54 | CN(C(=O)Cc1ccc(Cl)c(Cl)c1)[C@H]1CC[C@@]2(CCCO2)C[C@@H]1N1CCCC1 | inactive: 3.27%
55 | O=[N+]([O-])c1ccc2c(c1)nnn2O | inactive: -1.16%
56 | CN(C)C(=O)c1cc([N+](=O)[O-])cc2c1-c1c(cc([N+](=O)[O-])cc1[N+](=O)[O-])C2=O | inactive: 0.33%
57 | NC(=O)Nc1ccc([As](=O)(O)O)cc1 | inactive: 1.56%
58 | O=C(O)COc1ccc([As](=O)(O)O)cc1[N+](=O)[O-] | inactive: -1.08%
59 | Nc1ccccc1[As](=O)(O)c1ccccc1 | inactive: -0.6%
60 | O=P(Nc1nccs1)(Oc1ccccc1)Oc1ccccc1 | inactive: -0.7%
61 | O=P(Nc1nccs1)(c1ccccc1)c1nc2ccccc2s1 (configuration not stated) | active: 12.6%
62 | CCOP1(=S)c2c(C)nn(CCC#N)c2N=C(c2ccccc2F)N1C (configuration not stated) | inactive: 0.58%
63 | CS(=O)(=O)c1cc([N+](=O)[O-])c2no[n+]([O-])c2c1 | inactive: 2.55%
64 | CCOP(=O)(Nc1cccc2ccccc12)OCC | inactive: 3.49%
65 | COc1cc(C2NCCC3(OCCO3)C2(C)C)cc(OC)c1OC (configuration not stated) | inactive: 1.21%
66 | Cc1ccc(NCCc2c([N+](=O)[O-])cc([N+](=O)[O-])cc2[N+](=O)[O-])cc1 | inactive: -2.01%
67 | Nc1cccc2c([As](=O)(O)O)cccc12 | inactive: -1.51%
68 | CCCOP(=S)(Nc1nc(N)cc(=O)[nH]1)OCCC | inactive: -1.08%
69 | Cc1cccc(OCC(=O)OC2CN3CCC2CC3)c1 (configuration not stated) | inactive: 0.55%
70 | O=[As](O)(c1cccc(O)c1)c1cccc(O)c1 | inactive: 1.63%
71 | O=C(OC1CN2CCC1CC2)c1ccc(Cl)cc1 (configuration not stated) | inactive: -0.49%
72 | CS(=O)(=O)c1ccc(Cl)c(NC(=O)COC(=O)C(O)(c2ccccc2)c2ccccc2)c1 | inactive: 1.77%
73 | O=[As](O)(O)c1cccnc1 | inactive: 0.77%
74 | COc1cc(C(=O)NCC2(N3CCOCC3)CCCCC2)cc(Cl)c1OC(C)C | inactive: -2.94%
75 | CC(=O)Nc1ccc(Oc2c([N+](=O)[O-])cc([N+](=O)[O-])cc2[N+](=O)[O-])cc1 | inactive: -1.01%
76 | CC(=O)Nc1ccc([As](=O)(O)O)c(O)c1 | inactive: -2.43%
77 | C[C@H]1OP(=O)(Oc2ccccc2)C[C@@H]2O[C@@H]21 (some centres not stated) | inactive: 0.17%
78 | C[C@@H]1C=CCP(=O)(Oc2ccccc2)O1 (some centres not stated) | inactive: 0.51%

Row | SMILES | inhibition
79 | Cc1ccccc1CN(C)C(=O)COC(=O)C(O)(c1ccccc1)c1ccccc1 | inactive: -1.69%
80 | CC(=O)c1ccc(N2CC2c2ccncc2)cc1 (configuration not stated) | inactive: -1.16%
81 | CC(C)(C)C(=O)NC(Sc1ccccc1)C(Cl)(Cl)Cl (configuration not stated) | inactive: 1.86%
82 | CCOc1ccc(C2=NCC(CBr)S2)cc1 (configuration not stated) | inactive: 1.36%
83 | O=P1(Nc2nc3ccc(Cl)cc3s2)COc2ccccc2O1 (configuration not stated) | inactive: 0.36%
84 | CN(C)C(=O)Oc1noc2ccccc12 | inactive: -0.32%
85 | CC(NC(=O)COC(=O)C(O)(c1ccccc1)c1ccccc1)c1ccccc1 (configuration not stated) | inactive: -0.98%
86 | Cc1ccccc1OP(=O)(Nc1ccccn1)Oc1ccccc1C | inactive: -1.88%
87 | CCC(=O)N1C2C3N(C(=O)CC)C1C1N(C(=O)CC)C(C(N1C(=O)CC)N3C(=O)CC)N2C(=O)CC | inactive: 0%
88 | O=C(OC1CN2CCC1CC2)c1ccccc1 (configuration not stated) | inactive: -0.55%
89 | CC(=O)NC(SC(=S)N(CC(C)C)CC(C)C)C(Cl)(Cl)Cl (configuration not stated) | inactive: 9.31%
90 | Cc1ccc(OP(=O)(Nc2ccccn2)Oc2ccc(C)cc2)cc1 | inactive: 1%
91 | COC(=O)c1cc2c(s1)N=C(c1ccccc1)N(C)P2(=O)N1CCOCC1 (configuration not stated) | inactive: 4.71%
92 | Cc1ccc(NP(=O)(Oc2cccc(C)c2)Oc2cccc(C)c2)nc1 | inactive: 5.2%
93 | CCOC(=O)NC(Sc1ccccc1)C(Cl)(Cl)Cl (configuration not stated) | inactive: -0.82%
94 | c1ccc(-c2nn[nH]n2)c(-c2nn[nH]n2)c1 | inactive: 2.83%
95 | O=C(NC1CCS(=O)(=O)C1)NP(=S)(Oc1ccccc1)Oc1ccccc1 (configuration not stated) | inactive: 0.37%
96 | CCNC(=S)/N=C(\N)N[N+](=O)[O-] | inactive: 1.35%
97 | O=C(OC1CN2CCC1CC2)c1cccc(Cl)c1 (configuration not stated) | inactive: 0.5%
98 | C(Cc1nn[nH]n1)Cc1nn[nH]n1 | inactive: 1.2%
99 | Nc1ccc([As](=O)(O)c2ccc([N+](=O)[O-])cc2)cc1 | inactive: 0.66%
100 | O=[As](O)(c1ccccc1)c1ccc(O)cc1 | inactive: -0.43%
101 | CC(=O)NC(SC(=S)N(C)C)C(Cl)(Cl)Cl (configuration not stated) | inactive: -0.33%
102 | O=[N+]([O-])c1ncn(CCn2cnc([N+](=O)[O-])n2)n1 | inactive: 2.84%
